Results of unrelated studies side by side (data: NIAID ChemDB).

All rows: whole-cell or culture tests; organism: HIV-1

Neighbouring rows are from separate reports.

| SMILES | changes | read by | endpoint | strain | cells | value |
|---|---|---|---|---|---|---|
| O=S(=O)(c1cccc2cnccc12)N1CCNCC1 |  | p24 / ELISA | EC50 | IIIB | OM-10.1 | 1.26 µg/mL |
| O=C(CNC(=O)COc1ccccc1)NCc1ccc(C(=O)N2CCCCC2)cc1 |  | RT activity | EC50 | 92UG031 | PBMC | 17.8 µM |
| CN1c2c(-c3ccccc3)nn(CC(=O)N/N=C/c3ccc([N+](=O)[O-])cc3)c2-c2ccccc2S1(=O)=O |  | RT activity | EC50 | LAV-1 | PBMC | >100 µM |
| O=C(COc1cccnc1-c1cccc2ccccc12)Nc1ccccc1 |  | MTT / absorbance | EC50 | IIIB | MT-4 | >20.2 µM |
| Cn1c2ccccc2c(=O)c2c(O)ccc(O)c21 |  | p24 / ELISA | EC50 | IIIB | OM-10.1 | >0.36 µg/mL |
| CCOC(=O)c1cc2c3cccc(OC)c3c3ccc(N)cc3n2c1C |  | cytopathic effect / MTT | EC50 |  | MT-4 | 60 µM |
| Nc1ncnc2c1ncn2[C@@H]1C=C[C@H](CO)[C@H]1CO |  | XTT | EC50 | IIIB | MT-4 | 0.71 µg/mL |
| CC(C)=CCN1Cc2cccc3[nH]c(=S)n(c23)C[C@@H]1C |  | cytopathic effect / MTT | EC50 | IIIB | MT-4 | 0.18 µM |
| CN1c2c(-c3ccccc3)nn(CC(=O)N/N=C/c3ccc(Cl)cc3Cl)c2-c2ccccc2S1(=O)=O |  | RT activity | EC50 | LAV-1 | PBMC | >100 µM |
| Cc1cc2ccccc2c(-c2ccc3c4c(ccnc24)CCO3)c1[C@H](OC(C)(C)C)C(=O)O |  | p24 | EC50 | HXB2 | PBMC | 0.0072 µM |
| CCOC(=O)c1cc2c3cc(OC)ccc3c3ccc(N)cc3n2c1C |  | cytopathic effect / MTT | EC50 |  | MT-4 | 100 µM |
| CC(C)(C)c1ccc(-c2ncccc2OCC(=O)Nc2ccc(S(N)(=O)=O)cc2)cc1 |  | MTT / absorbance | EC50 | IIIB | MT-4 | >270 µM |
| CN1c2c(-c3ccccc3)nn(CC(=O)N/N=C/c3ccc(Cl)cc3)c2-c2ccccc2S1(=O)=O |  | RT activity | EC50 | LAV-1 | PBMC | >100 µM |
| COc1cc([C@H]2c3c(cc(OC)c(OC)c3OC)C[C@H]3CSC[C@@H]32)cc(OC)c1OC |  | cytopathic effect / MTT | EC50 | IIIB | MT-4 | 0.96 µM |
| Cc1ccc(C)n1-c1ccc(C(=O)O)c(O)c1 |  | p24 | EC50 | BCF02 R5 GROUP O | PBMC + MT-2 | 0.89 µM |
| Cn1c2ccccc2c(=O)c2c(O)cccc21 |  | p24 / ELISA | EC50 | IIIB | OM-10.1 | 2 µg/mL |
| COc1c2c(cc3c1[C@H](c1ccc(O)c(Oc4ccccc4)c1)[C@H]1C(=O)OC[C@@H]1C3)OCO2 |  | syncytia | EC50 | IIIB | SUP-T1/H9(HIV-1IIIB) + Sup-T1 | 2.43 µM |
| CCOC(=O)c1ccc(NC(=O)COc2cccnc2-c2cccc3ccccc23)cc1 |  | MTT / absorbance | EC50 | IIIB | MT-4 | >49.5 µM |
| CCCCOP(=O)(OCCCC)OC[C@H]1O[C@@H](n2cc(C)c(=O)[nH]c2=O)C[C@@H]1N=[N+]=[N-] |  | p24 | EC50 | RF | C8166 | >100 µM |
| CCOC(=O)c1cc2c3cc(N)ccc3c3ccc(OC)cc3n2c1C |  | cytopathic effect / MTT | EC50 |  | MT-4 | >200 µM |
| CCCOP(=O)(OCCC)OC[C@H]1O[C@@H](n2cc(C)c(=O)[nH]c2=O)C[C@@H]1O |  | p24 | EC50 | RF | C8166 | >100 µM |
| CCOC(=O)c1cc(-c2cccc(Br)c2)n(-c2cccc(OC)c2)c1C |  | cytopathic effect / MTT | EC50 |  | MT-4 | >143 µM |
| CCCOP(=O)(OCCC)OC[C@H]1O[C@@H](n2cc(C)c(=O)[nH]c2=O)C[C@@H]1OCC |  | p24 | EC50 | RF | C8166 | >100 µM |
| CCOC(=O)c1cc(-c2cccc(N=[N+]=[N-])c2)n(-c2ccccc2)c1C |  | cytopathic effect / MTT | EC50 |  | MT-4 | >300 µM |
| COc1ccc([C@H]2c3c(cc4c(c3OC)OCO4)C[C@H]3CSC[C@@H]32)cc1OCc1ccccc1 |  |  | EC50 | IIIB | MT-4 | 5.06 µM |
| Nc1ncnc2c1ncn2C[C@@H](CO)OCP(=O)(O)O |  | p24 | EC50 | LAI | MT-2 | 77.5 µM |
| CCCCOP(=O)(OCCCC)OC[C@H]1O[C@@H](n2cc(C)c(=O)[nH]c2=O)C[C@@H]1OCC |  | p24 | EC50 | RF | C8166 | >100 µM |
| CN1c2c(-c3ccccc3)nn(CC(=O)N/N=C/c3c(Cl)cccc3Cl)c2-c2ccccc2S1(=O)=O |  | RT activity | EC90 | LAV-1 | PBMC | >100 µM |
| COc1ccc(-c2ncccc2OCC(=O)Nc2ccc(C(N)=O)cc2)cc1 |  | MTT / absorbance | EC50 | IIIB | MT-4 | >176 µM |
| CCOP(=O)(OCC)OC[C@H]1O[C@@H](n2cc(C)c(=O)[nH]c2=O)C[C@@H]1OC(C)=O |  | p24 | EC50 | RF | C8166 | >100 µM |
| CN1c2c(-c3ccccc3)nn(CC(=O)N/N=C/c3cccc([N+](=O)[O-])c3)c2-c2ccccc2S1(=O)=O |  | RT activity | EC50 | LAV-1 | PBMC | >100 µM |
| O=C(COc1cccnc1-c1cccc2ccccc12)Nc1cccnc1Cl |  | MTT / absorbance | EC50 | IIIB | MT-4 | 10.8 µM |
| COc1cccc(-c2cc(C(C)=O)c(C)n2-c2cccc(N)c2)c1 |  | cytopathic effect / MTT | EC50 |  | MT-4 | >10.2 µM |
| COc1ccc(/C=N/NC(=O)Cn2nc(-c3ccccc3)c3c2-c2ccccc2S(=O)(=O)N3C)c(OC)c1 |  | RT activity | EC50 | LAV-1 | PBMC | 99.8 µM |
| N#Cc1ccc(NC(=O)COc2cccnc2-c2cccc3ccccc23)cc1 |  | MTT / absorbance | EC50 | IIIB | MT-4 | >39.5 µM |
| CCOC(=O)c1cc(-c2ccccc2)n(-c2cccc(N)c2)c1C |  | cytopathic effect / MTT | EC50 |  | MT-4 | >300 µM |
| C=CS(=O)(=O)N1CCCC(NS(=O)(=O)c2c(C(N)=O)[nH]c3ccc(Br)cc23)C1 |  | MTT | EC50 | IIIB | MT-4 | >40.7 µM |
| CCOC(=O)c1cc2c3cccc(OC)c3c3c(N)cccc3n2c1C |  | cytopathic effect / MTT | EC50 |  | MT-4 | 120 µM |
| CCCCCCCCCCCCCCCCCCOCCOP(=O)(O)CO[C@H](CO)Cn1cnc2c(N)ncnc21 | RT-K103N | p24 | EC50 |  | MT-2 | 0.00035 µM |
| COc1cccc2c1c1ccc(N)cc1n1c(C)c(C(C)=O)cc21 |  | cytopathic effect / MTT | EC50 |  | MT-4 | >18 µM |
| COC(=O)c1ccc(NC(=O)COc2cccnc2-c2cccc3ccccc23)c(Cl)c1 |  | MTT / absorbance | EC50 | IIIB | MT-4 | >9.35 µM |

A second listing of 6 rows from above:

CN1c2c(-c3ccccc3)nn(CC(=O)N/N=C/c3c(Cl)cccc3Cl)c2-c2ccccc2S1(=O)=O ; read by: RT activity ; endpoint: EC90 ; strain: LAV-1 ; cells: PBMC ; value: >100 µM
O=C(COc1cccnc1-c1cccc2ccccc12)Nc1cccnc1Cl ; read by: MTT / absorbance ; endpoint: EC50 ; strain: IIIB ; cells: MT-4 ; value: 10.8 µM
CN1c2c(-c3ccccc3)nn(CC(=O)N/N=C/c3cccc([N+](=O)[O-])c3)c2-c2ccccc2S1(=O)=O ; read by: RT activity ; endpoint: EC50 ; strain: LAV-1 ; cells: PBMC ; value: >100 µM
Cn1c2ccccc2c(=O)c2c(O)cccc21 ; read by: p24 / ELISA ; endpoint: EC50 ; strain: IIIB ; cells: OM-10.1 ; value: 2 µg/mL
CC(C)=CCN1Cc2cccc3[nH]c(=S)n(c23)C[C@@H]1C ; read by: cytopathic effect / MTT ; endpoint: EC50 ; strain: IIIB ; cells: MT-4 ; value: 0.18 µM
C=CS(=O)(=O)N1CCCC(NS(=O)(=O)c2c(C(N)=O)[nH]c3ccc(Br)cc23)C1 ; read by: MTT ; endpoint: EC50 ; strain: IIIB ; cells: MT-4 ; value: >40.7 µM

ECn: concentration that inhibits the pathogen or its effect by n%. An empty or dashed field is not shown.